Assay results taken from patent US20060167229A1, “Biologically active peptide conjugates” (priority 2002, published 2006).

Test system: IL-2
Experiment: T lymphocyte IL-2 secretion test (HT-2 cell bioassay of ConA supernatant)
Format: in vivo, BALB/c mice
Conditions: healthy mice
Procedure: Spleen cells of density 1×10^6/ml were placed onto a 96 wells cell culture plate, 100 μL/well, three parallel wells each of the assay sample and control sample per mouse. To the assay wells, 100 μl/well ConA of 100 μg/ml in RPMI-1640 was added, and […] plain RPMI-1640 was used for the controls. The cells were incubated for 66 hrs at 37° C., 5% CO2. The cells were then pelleted by centrifugation at 150 g for 10 minutes. The supernatant was collected and stored at −20° C. for cytokines IL-2 and IFN determination.
HT-2 cells at log phase were collected by centrifugation at 150 g for 10 minutes, and washed three times with cold Hank's solution by re-suspension and centrifugation. The collected HT-2 cells were re-suspended in RPMI-1640 and incubated at 37° C., 5% CO2 for 30 minutes. The cells were further washed twice with RPMI-1640 by re-suspension and centrifugation, and re-suspended to final concentration of 2×10^5/ml with RPMI-1640.
The supernatant obtained in section 1.2 were diluted to the following percentage with RPMI-1640: 100%, 50%, 25%, 12.5%, 6.25%, and 3.125%.
rIL-2 was diluted to the following concentration with RPMI-1640: 500 IU/ml, 250 IU/ml, 125 IU/ml, 62.5 IU/ml, 31.25 IU/ml, and […].
The plate was incubated at 37° C., 5% CO2 for 68 hours, then centrifuged at 150 g for 15 minutes and the supernatant removed. 100 μl 0.5 mg/ml MTT in RPMI-1640 without phenolsulfonphthalein was added into each well. After shaking for 3-4 minutes to re-suspend the cells, continue to incubate for another 4 hours. Samples were then centrifuged at 150 g for 15 minutes and the supernatant was removed. To each well, 120 μl 40 mM HCl-2-propanol was added, mixed for 3-4 minutes and OD analyzed at 570 nm, referenced at 630 nm with an ELISA plate reader.
The average OD of the three parallel wells of each dilution was taken and plotted against concentration on a semi-log paper, concentration on the X-axis. The concentration at 50% OD saturation was obtained for both the testing supernatant and rIL-2.
Sample IL-2 activity=(sample dilution at 50% maximum action÷rIL-2 standard dilution at 50% maximum action)×activity of rIL-2 standard at 50% maximum action (IU/ml)

Substance: IL-2: recombinant human IL (rhIL)-2, Shanghai Huaxin Biotech Inc.; positive control
- activity of T lymphocyte in secreting IL-2, X ± SD (IU) (peptide 5 μg/kg/day i.p. 15 days (IFN-γ, IL-2 3×10^5 IU/kg/day), saline 37 ± 9): 77 ± 13 IU
- activity of T lymphocyte in secreting IL-2, X ± SD (IU) (peptide 50 μg/kg/day i.p. 15 days (IFN-γ, IL-2 3×10^5 IU/kg/day), saline 39 ± 10): 72 ± 12 IU
- activity of T lymphocyte in secreting IL-2, X ± SD (IU) (peptide 500 μg/kg/day i.p. 15 days (IFN-γ, IL-2 3×10^5 IU/kg/day), saline 39 ± 10): 70 ± 13 IU
- activity of T lymphocyte in secreting IL-2, X ± SD (IU) (peptide 0.51 g/kg/day (so in the source) i.p. 15 days (IFN-γ, IL-2 3×10^5 IU/kg/day), saline 38 ± 13): 73 ± 13 IU
